A mixed list of measured activities; the numbers were collected in NIAID ChemDB.

Common to all: whole-cell or culture tests; agent: Candida albicans; read-out: MIC

Conditions beyond the fields shown may differ between rows. a–b is a range or a potency band. An empty or dashed field is not shown.

smiles,strain,read by,value
N=C(N)c1cccc(-c2cc3cc(C(=N)N)ccc3s2)c1,-,-,>60 µg/mL
CO[C@@H]1C[C@H](C[C@@H](C)[C@@H]2CC(=O)[C@H](C)/C=C(\C)[C@@H](O)[C@@H](OC)C(=O)[C@H](C)C[C@H](C)/C=C/C=C/C=C(\C)[C@H](N(O)C(N)=O)C[C@@H]3CC[C@@H](C)[C@@](O)(O3)C(=O)C(=O)N3CCCC[C@H]3C(=O)O2)CC[C@H]1C(=O)ON(C)O,10231,-,100 µg/mL
C[C@@H](n1cnc2cc(OCC(F)F)ccc2c1=O)[C@](O)(Cn1cncn1)c1ccc(F)cc1F,60 strains,-,0.15 µg/mL
CNc1ccc(C(=O)CC(O)CCC(C)C2OC(=O)CC(O)CC(=O)CC(O)CC(O)CC(O)CC(O)CC3(O)CC(O)C(C(=O)N4CCCCC4)C(CC(O[C@@H]4O[C@H](C)[C@@H](O)[C@H](N)[C@@H]4O)/C=C/C=C/C=C/C=C\C=C/C=C/C=C/C2C)O3)cc1,73,-,0.06 µg/mL
CC1(C)N=C(N)N=C(N)N1OCCCCCCCCON1C(N)=NC(N)=NC1(C)C,-,-,60–240 µg/mL
C[C@@H](n1cnc2cc(N)c(F)cc2c1=O)[C@](O)(Cn1cncn1)c1ccc(F)cc1F,76 strains,-,5 µg/mL
c1ccc(-c2ccc(COC(Cn3ccnc3)c3ccccc3)cc2)cc1,CA6,-,>128 µg/mL
Cc1c(O)cccc1C(=O)N[C@@H](CSc1ccccc1)[C@H](O)CN1C[C@H]2CCCC[C@H]2C[C@H]1C(=O)NC(C)(C)C,I136,-,32 µg/mL
Clc1ccc(C(Cn2ccnc2)OCc2ccc(-c3ccccc3)cc2)c(Cl)c1,CA2,-,128 µg/mL
CO[C@H]1C[C@@H]2CC[C@@H](C)[C@@](O)(O2)C(=O)C(=O)N2CCCC[C@H]2C(=O)O[C@H]([C@H](C)C[C@@H]2CC[C@@H](C(=O)ON(C)OC)[C@H](OC)C2)CC(=O)[C@H](C)/C=C(\C)[C@@H](O)[C@@H](OC)C(=O)[C@H](C)C[C@H](C)CCCC/C=C/1C,442,-,50 µg/mL
C(=C\c1ccccc1)/COC(Cn1ccnc1)c1ccccc1,PR1,-,>128 µg/mL
Cn1cc(-c2ccc(-n3cccc3)cc2)c(C(c2ccc(Cl)cc2Cl)n2ccnc2)c1,-,-,0.62 µg/mL
Clc1ccc(C(Cn2ccnc2)OC/C=C/c2ccccc2)c(Cl)c1,CA6,-,4 µg/mL
C[C@@H](n1cnc2cc(/C(N)=N/S(N)(=O)=O)ccc2c1=O)[C@](O)(Cn1cncn1)c1ccc(F)cc1F,60 strains,-,10 µg/mL
Cc1ccc(C(c2cn(C)cc2-c2ccc(Cl)c(Cl)c2)n2ccnc2)cc1,-,-,0.19 µg/mL
CC(C)(C)c1ccc(COC(Cn2ccnc2)c2ccc(Cl)cc2)cc1,5M,-,>128 µg/mL
c1ccc(-c2c[nH]cc2C(c2ccc3ccccc3c2)n2ccnc2)cc1,-,-,3.8 µg/mL
C[C@@H](n1cnc2cc(Cl)ccc2c1=O)[C@](O)(Cn1cncn1)c1ccc(F)cc1F,76 strains,-,≤0.03 µg/mL
Cc1ccc(C(Cn2ccnc2)OCc2ccc(C(C)(C)C)cc2)cc1,PR1,-,>128 µg/mL
C[C@@H](n1cnc2ccc(Br)cc2c1=O)[C@](O)(Cn1cncn1)c1ccc(F)cc1F,406 strains,-,≤0.03 µg/mL
COc1ccccc1C1N=C(N)N=C(N)N1OCc1cccc2ccccc12,-,-,>240 µg/mL
Clc1ccc(-c2cn(-c3ccccc3)cc2C(c2ccccc2)n2ccnc2)cc1,-,-,1.5 µg/mL
Cc1ccc(C(Cn2ccnc2)OCc2cccc3ccccc23)cc1,Y0109,-,>128 µg/mL
CC(C)(O)c1cn(-c2ccc(Cl)cc2)nn1,URM 4127,broth dilution,128 µg/mL
N=C(N)c1ccc2sc(/C=C/c3cc4cc(C(=N)N)ccc4s3)cc2c1,-,-,>60 µg/mL
NC1=NC2(CCCCC2)N(OCCCCCCCCCCc2ccccc2)C(N)=N1,-,-,60 µg/mL
CNc1ccc(C(=O)CC(O)CCC(C)C2OC(=O)CC(O)CC(=O)CC(O)CC(O)CC(O)CC(O)CC3(O)CC(O)C(C(=O)O)C(CC(O[C@@H]4O[C@H](C)[C@@H](O)[C@H](N)[C@@H]4O)/C=C/C=C/C=C/C=C\C=C/C=C/C=C/C2C)O3)cc1,200,-,0.06 µg/mL
CC1(C)N=C(N)N=C(N)N1OCCCCCCCCCCON1C(N)=NC(N)=NC1(C)C,-,-,30 µg/mL
C[C@H]1[C@H](O)[C@@H](C)/C=C/C=C/C=C/C=C/C=C/C=C/C=C/[C@H](O[C@@H]2O[C@H](C)[C@@H](O)[C@H](N)[C@@H]2O)C[C@@H]2O[C@](O)(C[C@@H](O)C[C@@H](O)CC[C@H](O)[C@@H](O)C[C@@H](O)CC(=O)O[C@H]1C)C[C@H](O)[C@H]2C(=O)O,200,-,0.48 µg/mL
C(=C\c1cc2ccc(C3=NCCN3)cc2[nH]1)/c1ccc(Oc2ccc(C3=NCCN3)cc2)cc1,-,-,30 µg/mL
CO[C@@H]1C[C@H](C[C@@H](C)[C@@H]2CC(=O)[C@H](C)/C=C(\C)[C@@H](O)[C@@H](OC)C(=O)[C@H](C)C[C@H](C)/C=C/C=C/C=C(\C)[C@H](N(O)C(=O)N(C)C)C[C@@H]3CC[C@@H](C)[C@@](O)(O3)C(=O)C(=O)N3CCCC[C@H]3C(=O)O2)CC[C@H]1C(=O)ON(C)O,62376,-,100 µg/mL
c1ccc2oc(Cc3cc4ccccc4o3)cc2c1,-,-,>60 µg/mL
CC1N=C(N)N=C(N)N1OCc1cccc2ccccc12,-,-,>240 µg/mL
C[C@@H](c1nc(-c2ccc(C#N)cc2)cs1)[C@](O)(Cn1cncn1)c1ccc(F)cc1F,406 strains,-,≤0.03 µg/mL
CO[C@H]1C[C@@H]2CC[C@@H](C)[C@@](O)(O2)C(=O)C(=O)N2CCCC[C@H]2C(=O)O[C@H]([C@H](C)C[C@@H]2CC[C@@H](C(=O)ON3CCNCC3)[C@H](OC)C2)CC(=O)[C@H](C)/C=C(\C)[C@@H](O)[C@@H](OC)C(=O)[C@H](C)C[C@H](C)CCCC/C=C/1C,10231,-,>100 µg/mL
N=C(N)c1ccc(N=NNc2ccc(C(=N)N)cc2)cc1,-,-,10 µg/mL
CNc1ccc(C(=O)CC(O)CCC(C)C2OC(=O)CC(O)CC(=O)CC(O)CC(O)CC(O)CC(O)CC3(O)CC(O)C(C(=O)N4CCN(CCO)CC4)C(CC(O[C@@H]4O[C@H](C)[C@@H](O)[C@H](NC(=O)CN(C)C)[C@@H]4O)/C=C/C=C/C=C/C=C\C=C/C=C/C=C/C2C)O3)cc1,73,-,0.015 µg/mL

Repeating the final 5 entries:

CC1N=C(N)N=C(N)N1OCc1cccc2ccccc12 ; value: >240 µg/mL
C[C@@H](c1nc(-c2ccc(C#N)cc2)cs1)[C@](O)(Cn1cncn1)c1ccc(F)cc1F ; strain: 406 strains ; value: ≤0.03 µg/mL
CO[C@H]1C[C@@H]2CC[C@@H](C)[C@@](O)(O2)C(=O)C(=O)N2CCCC[C@H]2C(=O)O[C@H]([C@H](C)C[C@@H]2CC[C@@H](C(=O)ON3CCNCC3)[C@H](OC)C2)CC(=O)[C@H](C)/C=C(\C)[C@@H](O)[C@@H](OC)C(=O)[C@H](C)C[C@H](C)CCCC/C=C/1C ; strain: 10231 ; value: >100 µg/mL
N=C(N)c1ccc(N=NNc2ccc(C(=N)N)cc2)cc1 ; value: 10 µg/mL
CNc1ccc(C(=O)CC(O)CCC(C)C2OC(=O)CC(O)CC(=O)CC(O)CC(O)CC(O)CC(O)CC3(O)CC(O)C(C(=O)N4CCN(CCO)CC4)C(CC(O[C@@H]4O[C@H](C)[C@@H](O)[C@H](NC(=O)CN(C)C)[C@@H]4O)/C=C/C=C/C=C/C=C\C=C/C=C/C=C/C2C)O3)cc1 ; strain: 73 ; value: 0.015 µg/mL